Measurements reported in PubChem BioAssay AID504761 (Drosophila RNAi Screening Center, 2011).

Assay: 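Genome-wide fly cell screen for genes dengue virus requires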 (primary screen)
Cell system: D.Mel-2 cells from Drosophila
Reagent: long dsRNA against Drosophila genes
Conditions: infection with dengue virus type 2; dose and infection time not stated
Read-out: 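Per well on two replicate plates, imaging gave the percent of cells positive for viral envelope protein, ranked by infection, and a nuclear count of cells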
Reading the numbers: infection score: higher = more virus-infected cells; cell count: higher = more cells in the well
Call rule: 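Low infection ranks in the two replicates (chance level up to 0.065) followed by a retest with a 1.5-fold or larger significant decrease, p below 0.05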
Meaning of the calls: active = confirmed: knock-down lowers infection; inactive = not picked or not confirmed
In all, the deposit lists about 22,000 reagents; this is a random part of those with a known target gene and a result. In the full data, 116 (0.52%) got an active call. 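Calls depend on retest data that are not deposited; infection was ranked per plate without normalising between plates; the unit of the infection score is not given.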 The raw values are shown without normalisation. The numbers tell different reagents against one gene apart. A plus sign joins genes that one reagent is predicted to hit. Further read-outs or replicates are left out here. Not stated in the record: the amount of reagent, the time to read-out.

gene | reagent | infection score, replicate 1 | infection score, replicate 2 | cell count, replicate 1 | Call
CG7889 | 1 | 0.8 | 2.67 | 6356 | inactive
CG7889 | 2 | 6.37 | 8.01 | 5938 | inactive
CG31342 | 1 | 8.76 | 7.6 | 1609 | inactive
CG31342 | 2 | 7.07 | 6.47 | 6135 | inactive
CG9853 | 1 | 19.4 | 19.7 | 5589 | inactive
CG9853 | 2 | 1.49 | 4.22 | 5887 | inactive
CG9853 | 3 | 0.23 | – | 439 | inactive
Slob (retired record) | 1 | 6.75 | 2.56 | 6286 | inactive
Cpr47Ed | 1 | 26.3 | 10.3 | 4349 | inactive
CG17683 | 1 | 7.71 | 1.24 | 3503 | inactive
CG17683 | 2 | 5.46 | 12 | 4815 | inactive
CG12147 | 1 | 8.01 | 5.06 | 6216 | inactive
CG12147 | 2 | 1.25 | 9.31 | 6616 | inactive
CG14947 | 1 | 4.08 | 2.08 | 6420 | inactive
Nsun2 | 1 | 3.6 | 6.61 | 5774 | inactive
Nsun2 | 2 | 27.2 | 1.53 | 4086 | inactive
drpr | 1 | 2.27 | 0.67 | 6223 | inactive
drpr | 2 | 2.06 | 4.49 | 6116 | inactive
PNKP | 1 | 6.73 | 5.19 | 6836 | inactive
mil | 1 | 19.3 | 26.7 | 5379 | inactive
mrt | 1 | 4.36 | 6.21 | 5867 | inactive
mrt | 2 | 1.79 | 19.7 | 558 | inactive
CG5139 | 1 | 1.91 | 1.14 | 7072 | inactive
CG5139 | 2 | 4.61 | 5.95 | 6441 | inactive
WASp | 1 | 4.33 | 10.7 | 6115 | inactive
WASp | 2 | 11.4 | 18.4 | 5868 | inactive
Reg-5 | 1 | 9.89 | 49 | 6211 | inactive
Spn75F | 1 | 0.74 | 1.03 | 5911 | inactive
CG18547 | 1 | 1.3 | 4.9 | 6473 | inactive
CG12914 | 1 | 25.2 | 6.96 | 5304 | inactive
CG7656 | 1 | 19.9 | 6.06 | 5066 | inactive
E(spl)m2-BFM | 1 | 3.17 | 2.48 | 6471 | inactive
CG8300 | 1 | 1.81 | 5.25 | 6589 | inactive
CG8300 | 2 | 28.2 | 26.6 | 6210 | inactive
Arl6IP1 | 1 | 1.13 | 5.7 | 6553 | inactive
Aef1 | 1 | 9.09 | 7.78 | 5711 | inactive
Or65b | 1 | 3.17 | 2.13 | 5968 | inactive
CG13590 | 1 | 3.72 | 3.4 | 6077 | inactive
CG13590 | 2 | 35.9 | 9.81 | 5466 | inactive
CG8435 | 1 | 19.7 | 14.4 | 4177 | inactive
CG8435 | 2 | 18.3 | 10.4 | 5920 | inactive
E(spl)m7-HLH | 1 | 14.3 | 1.49 | 5917 | inactive
E(spl)m7-HLH | 2 | 17.8 | 11.2 | 5486 | inactive
mthl12 | 1 | 3.56 | 5.59 | 5863 | inactive
MED4 | 1 | 18.6 | 21.6 | 5696 | inactive
MED4 | 2 | 7.67 | 2.73 | 6388 | inactive
fdl | 1 | 8.06 | 15.5 | 6812 | inactive
fdl | 2 | 1.69 | 2.18 | 6443 | inactive
MED1 | 1 | 3.43 | 11.7 | 6356 | inactive
CG10182 | 1 | 6.17 | – | 1718 | inactive
CG10182 | 2 | 5.37 | 7.65 | 6662 | inactive
CG17780 + CG17781 | 1 | 5 | 17.9 | 6795 | inactive
CG17780 + CG17781 | 2 | 1.33 | 0.99 | 6559 | inactive
CG17780 + CG17781 | 3 | 18.1 | 26.8 | 6748 | inactive
grk | 1 | 5.95 | 3.44 | 6351 | inactive
CG13186 | 1 | 18.6 | 14.8 | 3549 | inactive
CG30344 | 1 | 2.99 | 8.06 | 6061 | inactive
CG30344 | 2 | 1.98 | 0.88 | 5913 | inactive

Targets listed so far whose target name starts with D or d:
gene | reagent | infection score, replicate 1 | infection score, replicate 2 | cell count, replicate 1 | Call
drpr | 1 | 2.27 | 0.67 | 6223 | inactive
drpr | 2 | 2.06 | 4.49 | 6116 | inactive
